# Laboratory results published in article PMC10603992, “Antimicrobial and Adjuvant Potencies of Di-n-alkyl Substituted Diazalariat Ethers” (Antibiotics, 2023).
# Experiment: Complexation of antimicrobials by C10LE (1H-NMR)
# Type: physicochemical
# Settings: 1H-NMR in CDCl3 (identical in CD2Cl2), at least triplicate
row,SMILES,Complexation ratio with C10LE
1,CN(C)[C@@H]1C(O)=C(C(N)=O)C(=O)[C@@]2(O)C(O)=C3C(=O)c4c(O)ccc(Cl)c4[C@@](C)(O)[C@H]3C[C@@H]12 [Chlortetracycline•HCl],No complexation observed
2,C[C@H]1c2cccc(O)c2C(=O)C2=C(O)[C@]3(O)C(=O)C(C(N)=O)=C(O)[C@@H](N(C)C)[C@@H]3[C@@H](O)[C@@H]21 [Doxycycline•HCl],1.02 ± 0.04
3,CN(C)c1ccc(O)c2c1C[C@H]1C[C@H]3[C@H](N(C)C)C(O)=C(C(N)=O)C(=O)[C@@]3(O)C(O)=C1C2=O [Minocycline•HCl],1.06 ± 0.05
4,CN(C)[C@@H]1C(O)=C(C(N)=O)C(=O)[C@@]2(O)C(O)=C3C(=O)c4c(O)cccc4[C@@](C)(O)[C@H]3[C@H](O)[C@@H]12 [Oxycycline•HCl],0.997 ± 0.01

# Experiment: Complexation of antimicrobials by C12LE (NMR extraction)
# Type: physicochemical
# Settings: CHCl3/CDCl3, (drug:C12LE), average of at least three experiments
row,SMILES,Complexation ratio with C12LE
1,"CC1(C)S[C@@H]2[C@H](NC(=O)[C@H](N)c3ccccc3)C(=O)N2[C@H]1C(=O)O [Ampicillin, ampicillin]",5.1
2,"CO/N=C(\C(=O)N[C@@H]1C(=O)N2C(C(=O)[O-])=C(C[N+]3(C)CCCC3)CS[C@H]12)c1csc(N)n1 [Cefepime, cefepime]",no complexation
3,CN(C)[C@@H]1C(O)=C(C(N)=O)C(=O)[C@@]2(O)C(O)=C3C(=O)c4c(O)ccc(Cl)c4[C@@](C)(O)[C@H]3C[C@@H]12 [Chlortetracycline•HCl],failed to complex
4,"NC[C@H]1O[C@H](O[C@H]2[C@H](O)[C@@H](O[C@H]3O[C@H](CO)[C@@H](O)[C@H](N)[C@H]3O)[C@H](N)C[C@@H]2N)[C@H](O)[C@@H](O)[C@@H]1O [Kanamycin, kanamycin]",no complexation
5,"CC1(C)S[C@@H]2[C@H](NC(=O)Cc3ccccc3)C(=O)N2[C@H]1C(=O)O [Penicillin G, penicillin G]",7.1

# Structures can show the parent of a compound that is named as a salt.
